Results of unrelated studies side by side (data: NIAID ChemDB).

All rows: whole-cell or culture tests; species: HIV-1; method: MTT; measure: EC50

Neighbouring rows are from separate reports. ECn is the concentration giving n% inhibition of infection, replication or growth. Blank or dashed fields: not listed here.

| smiles | changes | strain or isolate | cell line | value |
|---|---|---|---|---|
| COC1=C(C)C(=O)C(C)(C)C(=O)C1(O)OC(=O)/C=C/c1ccccc1 |  |  | C8166 | 25.91 µM |
| COc1cc2c(c(OC)c1OC)-c1c(cc(O)c(OC)c1O)C[C@@H](C)[C@@H](C)C2 |  |  | C8166 | 2.2 µg/mL |
| FC(F)(F)[C@@]1(C#CC2CC2)OC(=S)Nc2ccc(Cl)cc21 |  | IIIB | CEM | 0.00253 µM |
| CCOC(=O)c1ccc(CN2CCC(Nc3nc(Oc4c(C)cc(C#N)cc4C)c4ccsc4n3)CC2)cc1 | NNRTI-resistant (RT L100I) | IIIB | MT-4 | 1.44 µM |
| O=C(COc1ccc2ccccc2c1)NCc1nnc(Sc2nc3ccccc3[nH]2)n1-c1ccccc1 |  | IIIB | MT-4 | >0.2 µg/mL |
| Cc1cc(/C=C/C#N)cc(C)c1Oc1nc(NC2CCN(Cc3ccccc3F)CC2)nc2ccsc12 | NNRTI-resistant (RT Y181C) | IIIB | MT-4 | 0.0298 µM |
| Clc1ccccc1-c1nc(-c2nnc(C34CCC5CC(CC3C5)C4)o2)cs1 |  | IIIB | MT-4 | >125 µM |
| O=C1O[C@](C#CC2CC2)(C(F)(F)F)c2cc(Cl)ccc2N1CN1CCN(c2ccccc2)CC1 |  | IIIB | CEM | 0.003 µM |
| Cc1ccc2c(c1)C1[C@H](C)CC[C@](C)(C(=O)O)[C@@H]1CC2 |  |  | C8166 | 16.44 µM |
| COc1cc(/C=C/c2nc(NC(=S)Nc3ccccc3C)c3ccccc3n2)cc(OC)c1OC |  | IIIB | MT-4 | >4.05 µg/mL |
| CC1=C(O[C@H](CC(=O)O)c2ccccc2)C(=O)C(C)(C)C1=O |  |  | C8166 | 18.73 µM |
| COc1ccccc1NC(=O)Nc1nc(/C=C/c2cc(OC)c(OC)c(OC)c2)nc2ccccc12 |  | IIIB | MT-4 | >2.03 µg/mL |
| Cc1ccccc1-c1nc(-c2nnc(C34CCC5CC(CC3C5)C4)o2)cs1 |  | IIIB | MT-4 | >10.5 µM |
| Cc1ccc(-n2c(CNC(=O)COc3ccc4ccccc4c3)n[nH]c2=S)cc1 |  | IIIB | MT-4 | >15.2 µg/mL |
| Cc1cc(C#N)cc(C)c1Oc1nc(NC2CCC(NCc3ccc(O)cc3)CC2)nc2ccsc12 | NNRTI-resistant (RT Y181C) | IIIB | MT-4 | >20.1 µM |
| O=C(COc1ccc2ccccc2c1)NCc1n[nH]c(=S)n1-c1ccc(Cl)cc1 |  | IIIB | MT-4 | >20.2 µg/mL |
| Cc1cc(C#N)cc(C)c1Oc1nc(NC2CCN(Cc3ccc(S(N)(=O)=O)cc3)CC2F)nc2ccsc12 | NNRTI-resistant (RT Y188L) | IIIB | MT-4 | 0.0139 µM |
| COc1cc(/C=C/c2nc(NC(=O)Nc3cccc(C)c3)c3ccccc3n2)cc(OC)c1OC |  | IIIB | MT-4 | >0.96 µg/mL |
| Cc1c(C(C)c2c(F)cccc2F)nc(N(C)C)[nH]c1=O | Y181C resistant |  | MT-4 | 0.7 µM |
| O=C1O[C@](C#CC2CC2)(C(F)(F)F)c2cc(Cl)ccc2N1CN1CCN(c2ccc(F)cc2)CC1 |  | IIIB | CEM | 0.0036 µM |
| Cc1cc(/C=C/C#N)cc(C)c1Oc1nc(NC2CCN(Cc3cccc(C(N)=O)c3)CC2)nc2ccsc12 | NNRTI-resistant (RT E138K) | IIIB | MT-4 | 0.00641 µM |
| FC(F)(F)[C@@]1(C#CC2CC2)OC(=S)Nc2ccc(Cl)cc21 |  | IIIB | MT-4 | 0.003 µg/mL |
| O=C(NCc1ccc(F)cc1)C1C(=O)N(O)C(=O)c2ccccc21 |  | IIIB | MT-4 | 2.34 µM |
| Cc1cn([C@H]2C[C@H](N=[N+]=[N-])[C@@H](CO)O2)c(=O)[nH]c1=O |  | NL4-3 | MT-4 | 0.012 µM |
| Cc1cccc(-c2nc(-c3nnc(C45CCC6CC(CC4C6)C5)o3)cs2)c1 |  | IIIB | MT-4 | >125 µM |
| COc1cc(/C=C/c2nc(NC(=S)Nc3ccc([N+](=O)[O-])cc3)c3ccccc3n2)cc(OC)c1OC |  | IIIB | MT-4 | >3.87 µg/mL |
| O=C(COc1ccc2ccccc2c1)NCc1n[nH]c(=S)n1Cc1ccccc1 |  | IIIB | MT-4 | >28.5 µg/mL |
| CCCCCC(CCSC)OC(=O)[C@@H](N)c1ccccc1-c1c[nH]c2ccccc12 |  | NL4-3 | MT-4 | >25 µM |
| O=C1CN=C(COc2ccc3ccccc3c2)NN1 |  | IIIB | MT-4 | >5.2 µg/mL |
| Cc1cc(C#N)cc(C)c1Oc1nc(NC2CCC(NCc3ccccc3)CC2)nc2ccsc12 | NNRTI-resistant (RT K103N) | IIIB | MT-4 | 0.754 µM |
| CSCCC(OC(=O)[C@@H](N)c1ccccc1-c1c[nH]c2ccccc12)C(C)(C)C |  | NL4-3 | MT-4 | 18 µM |
| O=C1O[C@](C#CC2CC2)(C(F)(F)F)c2cc(Cl)ccc2N1CN1CCN(c2cccc(Cl)c2)CC1 |  | IIIB | CEM | 0.0024 µM |
| CSCC[C@H](OC(=O)[C@@H](N)c1ccccc1-c1c[nH]c2ccccc12)c1ccccc1 |  | NL4-3 | MT-4 | 10 µM |
| CC1=C(O)c2c(oc(-c3ccccc3)cc2=O)C(C)(C)C1=O |  |  | C8166 | >200 µM |
| O=C(O)c1cn(C2CC2)c2cc(N3CCN(CN4C(=O)O[C@](C#CC5CC5)(C(F)(F)F)c5cc(Cl)ccc54)CC3)c(F)cc2c1=O |  | IIIB | CEM | 0.00447 µM |
| Fc1ccccc1-c1nc(-c2nnc(C34CCC5CC(CC3C5)C4)o2)cs1 |  | IIIB | MT-4 | >97.6 µM |

A second listing of 5 rows from above:

{"smiles": "CC1=C(O)c2c(oc(-c3ccccc3)cc2=O)C(C)(C)C1=O", "cell line": "C8166", "value": ">200 µM"}
{"smiles": "O=C1O[C@](C#CC2CC2)(C(F)(F)F)c2cc(Cl)ccc2N1CN1CCN(c2cccc(Cl)c2)CC1", "strain or isolate": "IIIB", "cell line": "CEM", "value": "0.0024 µM"}
{"smiles": "COc1cc2c(c(OC)c1OC)-c1c(cc(O)c(OC)c1O)C[C@@H](C)[C@@H](C)C2", "cell line": "C8166", "value": "2.2 µg/mL"}
{"smiles": "Cc1cn([C@H]2C[C@H](N=[N+]=[N-])[C@@H](CO)O2)c(=O)[nH]c1=O", "strain or isolate": "NL4-3", "cell line": "MT-4", "value": "0.012 µM"}
{"smiles": "COc1ccccc1NC(=O)Nc1nc(/C=C/c2cc(OC)c(OC)c(OC)c2)nc2ccccc12", "strain or isolate": "IIIB", "cell line": "MT-4", "value": ">2.03 µg/mL"}